Results of unrelated studies side by side (data: NIAID ChemDB).

All rows: tests in culture; organism: HIV-1; measure: fold resistance

Neighbouring rows are from separate reports. Blank or dashed fields: not listed here. Fold resistance: result on the changed form divided by that on wild type.

structure	mutations	cells	read by	strain	result
Nc1ncnc2c1ncn2[C@@H]1O[C@H](CO)C[C@@H]1F	RT-T215Y	MT-2	p24	T215Y(RT-T215Y)	0.9
CC(C)=CCN1Cc2cccc3[nH]c(=S)n(c23)C[C@@H]1C	RT-P236L	CEM + CEM-SS	cytopathic effect / XTT	IIIB HEPT-resistant (IV)	1
CCNc1cccnc1N1CCN(C(=O)c2cc3cc(OC)ccc3[nH]2)CC1	RT-Y181C	CEM	syncytia	IIIB PYR(RT-Y181C)	20
Cc1cn([C@H]2C[C@H](N=[N+]=[N-])[C@@H](CO)O2)c(=O)[nH]c1=O	RT-A62V V75I F77L F116Y Q151M	MT-2	p24	RT A62V/V75I/F77L/F116Y/Q151M	162
CCOCn1c(Sc2ccccc2)c(CC)c(=O)[nH]c1=S	RT-Y181C	CEM	syncytia	IIIB PYR(RT-Y181C)	132.5
CCCc1cc(=O)oc2c3c(c4c(c12)OC(C)(C)C=C4)O[C@H](C)[C@@H](C)[C@@H]3O	RT-K103N Y181C	CEM + CEM-SS	cytopathic effect / XTT	IIIB(A17(III))	1.5
CCc1cc(NCc2nc3c(Cl)ccc(Cl)c3o2)c(=O)[nH]c1C	RT-L100I	CEM	syncytia	IIIB-TIBO(0.5)(RT-L100I)	17
Cc1occc1C(=S)Nc1ccc(Cl)c(/C=N/OC(C)(C)C)c1	RT-E138K	CEM	syncytia	IIIB	1.5
Cc1cn([C@H]2C[C@H](N=[N+]=[N-])[C@@H](CO)O2)c(=O)[nH]c1=O	RT-Y188C	CEM + CEM-SS	XTT	NL4-3	6
Nc1ccn([C@H]2CC[C@@H](CO)O2)c(=O)n1	RT-M184V	MT-2	p24	M184V(RT-M184V)	3.7
Cc1cn([C@H]2C[C@H](N=[N+]=[N-])[C@@H](CO)O2)c(=O)[nH]c1=O	RT-Y181C	CEM + CEM-SS	cytopathic effect / XTT	NL4-3	3.33
CCc1cc(NCc2nc3c(Cl)ccc(Cl)c3o2)c(=O)[nH]c1C	RT-K103N	MT-4	p24	NL4-3	8
C[C@H](COc1cc(N)nc(N)n1)OCP(=O)(O)O	RT-M41L D67N V118I M184V L210W T215Y	CEM	syncytia	Clinical isolate C20	3.78
CC(C)=CCN1Cc2cc(Cl)cc3[nH]c(=S)n(c23)C[C@@H]1C	RT-Y181C	CEM	syncytia	IIIB PYR(RT-Y181C)	100
Nc1ncnc2c1ncn2CCOCP(=O)(O)O	RT-M41L V118I L210W T215Y	CEM	syncytia	Clinical isolate C19	16.6
Cc1ccnc2c1NC(=O)c1cccnc1N2C1CC1	RT-K103N	CEM + CEM-SS	cytopathic effect / XTT	NL4-3	>100
CCN1C(=O)N(Cc2ccccc2)S(=O)(=O)c2cscc21	RT-V106A	CEM	syncytia		>111
CN[C@H]1CO[C@@H]2OCC[C@H](OC(=O)N[C@@H](Cc3ccccc3)[C@H](O)CN(CC(C)C)S(=O)(=O)c3ccc4nc(NC5CC5)sc4c3)[C@@H]21	L10I I54V K20R L24I V32I L33F M36I M46I I54M L63P K70Q V82I I84V L89M	MT-4	p24 / luminescence	NL4-3	9
Nc1nc(=O)n([C@@H]2CS[C@H](CO)O2)cc1F	RT-D67N K70R Y181C M184V T215F K219Q	HT4 + HT4 LacZ-1	plaque count	RTMC(181 184) (RT D67N K70R Y181C M184V T215F K219Q)	>5560
CC(=O)Oc1ccc(/C=C/C(=O)O[C@H](C(=O)O)[C@H](OC(=O)/C=C/c2ccc(OC(C)=O)c(OC(C)=O)c2)C(=O)O)cc1OC(C)=O	AR117-resistant	MT-4		NL4-3	>11.9
O=S1(c2ccccc2)=NC(=S)Nc2ccccc21	RT-Y181C	CEM + CEM-SS	cytopathic effect / XTT	IIIB(DPS-R(III))	>250
O=c1[nH]cnc2c1ncn2[C@H]1CC[C@@H](CO)O1	RT-V75I F77L Q151M	PBMC	p24	Recombinant	1
Cc1cn([C@@H]2O[C@H](CO[Si](C)(C)C(C)(C)C)C3(OS(=O)(=O)C=C3N)[C@H]2O[Si](C)(C)C(C)(C)C)c(=O)n(C)c1=O	RT-E138K	CEM	syncytia	IIIB	>2080
CCN(c1nc(F)ccc1NC(C)(C)C)C1CCN(C(=O)c2cc3cc(NC(=O)N4CCN(C)CC4)ccc3[nH]2)CC1	LPV-P31 lopinavir-resistant mutant			IIIB	39.6
Fc1cccc(Cl)c1C1OCc2nc3ccccc3n21	RT-E138K	CEM	cytopathic effect / MTT	TSAO-resistant (RT E138K)	≥3.86
CCN[C@H]1CO[C@@H]2OCC[C@H](OC(=O)N[C@@H](Cc3ccccc3)[C@H](O)CN(CC(C)C)S(=O)(=O)c3ccc4nc(NC5CC5)sc4c3)[C@@H]21	L10I L33I M36I M46I I54V K55R I62V L63P A71V G73S V82T L90M I93L	MT-4	p24 / luminescence	NL4-3	1.9
N#CCN1C(=O)N(Cc2ccccc2)S(=O)(=O)c2cscc21	RT-E138K	CEM	syncytia		6
Fc1cccc(F)c1C1SCc2nc3ccccc3n21	RT-L100I	CEM	cytopathic effect		2.24
Nc1nc(NC2CC2)c2ncn([C@H]3C=C[C@@H](CO)C3)c2n1	1(T69G+K103N)	MT-2	p24	RT-T69G K103N	8.3
Cc1cc(Br)cc(S(=O)(=O)c2cccc(N)c2C#N)c1	RT-P236L	HeLa + HELA CD4+	β-galactosidase		0.455
Nc1ncnc2c1ncn2CCOCP(=O)(O)O	RT-Y181C	CEM	syncytia	IIIB-Nevirapine(1.0)(RT-Y181C)	3.14
CCOCn1c(Cc2ccccc2)c(CC)c(=O)[nH]c1=O	RT-L100I	CEM	syncytia	IIIB BHAP(RT-L100I)	22.5
CCCN(C)C(=O)Oc1nsnc1-c1c(Cl)ccc(N)c1Cl	RT-K103N	MAGI	MTT	IIIB	2.37
Cc1cc(Cl)cc(S(=O)(=O)c2cccc(N)c2C#N)c1	RT-K103N Y181C	HeLa + HELA CD4+	β-galactosidase		>5560
O=c1[nH]cnc2c1ncn2[C@H]1CC[C@@H](CO)O1	RT-Y181C	CEM	syncytia	IIIB-Nevirapine(0.1)(RT-Y181C)	1.5
c1ccc(C2OCc3nc4ccccc4n32)cc1	RT-L100I	CEM	cytopathic effect / MTT	TIBO R82150-resistant (RT L100I)	1.3
Cc1cn([C@H]2C[C@H](N=[N+]=[N-])[C@@H](CO)O2)c(=O)[nH]c1=O	RT-V75I	PBMC	p24	Recombinant	0
CC(C)=CCOc1cc(NC(=S)c2ccsc2C)ccc1Cl	RT-L100I T139I	CEM + CEM-SS	XTT	Costatolide-resistant (RT L100I T139I)	1.6
Cc1cc(O)cc(S(=O)(=O)c2cccc(N)c2C#N)c1	RT-K103N Y181C	HeLa + HELA CD4+	β-galactosidase		>794
Cc1c(N)nc(N)nc1OCCOCP(=O)(O)O	RT-A62V V75I F77L Q151M M184V	CEM	syncytia	Clinical isolate HA20.17	2.9
Cc1cn([C@H]2C[C@H](N=[N+]=[N-])[C@@H](CO)O2)c(=O)[nH]c1=O	K112M K113E V128I M200I H219P	MT-2	p24 / ELISA	IIIB	0.6
O=c1[nH]cnc2c1ncn2[C@H]1CC[C@@H](CO)O1	RT-M184V	HT4 + HT4 LacZ-1	plaque count	HXB2(184) (RT-M184V)	2.81
CC(=O)Oc1ccc(/C=C/C(=O)O[C@H](C(=O)O)[C@H](OC(=O)/C=C/c2ccc(OC(C)=O)c(OC(C)=O)c2)C(=O)O)cc1OC(C)=O	AMD3100-resistant	MT-4	cytopathic effect / MTT	NL4-3	>12
C[C@H](Cn1cnc2c(N)ncnc21)OCP(=O)(O)O	RT-M41L D67N V118I M184V L210W T215Y	CEM	syncytia	Clinical isolate C20	29.7
CC(C)=CCN1c2cc(Cl)cc3[nH]c(=S)n(c23)C[C@@H]1C	RT-L74V Y181C	MT-4			>30
Nc1nc2c(ncn2[C@H]2CO[C@@H](CO)O2)c(=O)[nH]1	RT-K103N V108I				~0.1
CC(C)CN(C[C@@H](O)[C@H](Cc1ccccc1)NC(=O)O[C@H]1CCOC1)S(=O)(=O)c1ccc(N)cc1	L10I I15V K20R L24I V32I M36I M46I I54V I62V L63P K70Q V82A L88M	MT-4	p24 / luminescence	NL4-3	>27
CC(C)=CCN1Cc2cc(Cl)cc3[nH]c(=S)n(c23)C[C@@H]1C	RT-Y181C	CEM	syncytia	IIIB-Nevirapine(0.1)(RT-Y181C)	1090
COC(=O)N[C@H](C(=O)N[C@@H](Cc1ccccc1)[C@@H](O)CN(Cc1ccc(-c2ccccn2)cc1)NC(=O)[C@@H](NC(=O)OC)C(C)(C)C)C(C)(C)C	L10I I15V K20R L24I V32I M36I M46I I54V I62V L63P K70Q V82A L88M	MT-4	p24 / luminescence	NL4-3	>213
Cc1ccnc2c1NC(=O)c1cccnc1N2C1CC1	RT-D67N K70R Y181C T215Y K219Q	CEM + CEM-SS	cytopathic effect / XTT	NL4-3(RT-4XAZT+Y181C)	40
Nc1nc(=O)n([C@@H]2CS[C@H](CO)O2)cc1F	RT-M41L D67N V106A M184V T215Y				~31
N#CCN1C(=O)N(Cc2cccc(F)c2)S(=O)(=O)c2cscc21	RT-Y181C	CEM	syncytia		47.5
O=c1[nH]cnc2c1ncn2[C@H]1CC[C@@H](CO)O1	RT-M41L D67N K70R T215Y K219Q	PBMC	p24	XM-AZT-resistant	0.3
CCOCn1c(Cc2ccccc2)c(C(C)C)c(=O)[nH]c1=O	RT-V106A	CEM	syncytia	IIIB	68
CCOCn1c(Cc2cc(C)cc(C)c2)c(CC)c(=O)[nH]c1=O	RT-V106A	CEM	syncytia	IIIB NEV(RT-V106A)	10
Cc1cn([C@H]2C=C[C@@H](CO)O2)c(=O)[nH]c1=O	RT-delta67 T69G	MT-2	p24		9.4
Cc1occc1C(=S)Nc1ccc(Cl)c(C(=O)OC2CCCC2)c1	RT-V106A	CEM	syncytia	IIIB	8
COc1cc(C(F)(F)F)cc(S(=O)(=O)c2cccc(N)c2C#N)c1	RT-Y188C	HeLa + HELA CD4+	β-galactosidase		21.4
CCc1c(Sc2ccccn2)n(COCc2ccccc2)c(=O)[nH]c1=O	RT-L100I	CEM + CEM-SS	cytopathic effect / XTT	IIIB(OC-R(I))	15
O=c1[nH]cnc2c1ncn2[C@@H]1O[C@H](CO)C[C@@H]1F	RT-L214F	MT-2	p24	L214F(RT-L214F)	1.5
O=C1N(Cc2ccccc2)c2cscc2S(=O)(=O)N1Cc1ccccc1	RT-K103N	CEM	syncytia		>5.78
Cc1cn([C@H]2C[C@H](N=[N+]=[N-])[C@@H](CO)O2)c(=O)[nH]c1=O	RT-I178L T215Y	MT-2	p24	NL4-3	1.5
CCOP(=O)(COc1ccc(C[C@H](NC(=O)O[C@H]2CO[C@H]3OCC[C@H]32)[C@H](O)CN(CC(C)C)S(=O)(=O)c2ccc(OC)cc2)cc1)OCC	I401T	MT-2	p24 / ELISA	IIIB	1.4
Cc1cn([C@H]2C[C@H](N=[N+]=[N-])[C@@H](CO)O2)c(=O)[nH]c1=O	RT-K65R L74V M184V Y115F	PBMC	p24	XM-ABC-resistant	0.3